A mixed list of measured activities; the numbers were collected in NIAID ChemDB.

Common to all: growth or infection tests; agent: Rhinovirus

ECn: concentration that inhibits the pathogen or its effect by n%. Neighbouring rows are from separate reports. Blank or dashed fields: not listed here. Inhibition is in % at the dose shown (toxicity tests: loss of growth or viability). A number after MIC or MFC names an inhibition level or a share of isolates.

compound | read by | cell line | dose | strain | read-out | result
Cc1cc(Cn2cnc3c(N(C)C)nc(C(F)(F)F)nc32)ccc1Cl | plaque count | M-HELA | - | Serotype 18 | EC50 | >8 µM
CCO/N=C/c1ccc(OCCC2CCN(c3ccc(Cl)nn3)CC2)cc1 | neutral red | KB | - | Baylor 3 (LDL receptor group 47) | EC50 | 0.173 µM
COc1ccc(Cn2cnc3c(N(C)C)nc(C(F)(F)F)nc32)cc1C | plaque count | M-HELA | 8 µM | Serotype 3 | inhibition | 28%
Cc1cc(CCCOc2c(C)cc(-c3nnc(C)o3)cc2C)on1 | - | - | - | Serotype 14 | MIC | 8.9 µM
CSc1nsc(-c2ccc(OCCOc3ccc([N+](=O)[O-])cc3)cc2)c1C#N | cytopathic effect | HELA-OHIO | - | Serotype 15 (group B) | EC50 | >2 µM
N#CCCNC(=O)C1CCCC(=O)N1 | - | - | - | Serotype 2 | MIC | >100 µg/mL
CC(=O)c1cc(CCCOc2c(C)cc(-c3noc(C)n3)cc2C)co1 | cytopathic effect | HeLa | - | 15 serotype mixtures | EC80 | 0.3 µM
Cc1cc(CCCCCOc2c(C)cc(-c3nnc(C)o3)cc2C)on1 | plaque count | HeLa | - | serotype 2 1A 1B 6 14 21 22 15 25 30 50 67 89 86 41 | EC80 | 0.42 µg/mL
Cc1cc(CCCCCOc2c(C)cc(-c3nnc(C)o3)cc2C)on1 | - | - | - | serotype 2 1A 1B 6 14 21 22 15 25 30 50 67 89 86 41 | MIC50 | 0.34 µg/mL
CSc1nsc(-c2ccc(OCCCOc3ccccc3)cc2)c1C#N | cytopathic effect | HELA-OHIO | - | Serotype 2 (group B) | EC50 | >20 µM
COc1ccc(C(=O)CCCCOc2c(Cl)cc(C3=NCCO3)cc2Cl)cc1 | - | - | - | serotype 1A 1B 2 6 14 15 21 22 25 29 30 41 42 45 59 63 67 70 72 86 89 | MIC80 | >237 µM
CCOC(=O)c1ccc(OCCOc2ccc(-c3snc(SC)c3C#N)cc2)cc1 | cytopathic effect | HELA-OHIO | - | Serotype 39 (group B) | EC50 | >2 µM
Cc1cc(OCCCc2ccc(C(F)(F)F)nn2)cc(C)c1-c1noc(C(F)F)n1 | cytopathic effect | HeLa | - | serotypes 3 4 5 9 16 18 38 66 75 67 | EC80 | 0.1 µg/mL
CCN=C1CCC(C(=O)NCCC#N)N1 | - | - | - | Serotype 2 | MIC | >100 µg/mL
N#Cc1ccc(C2=Cc3cc(C#N)ccc3OC2)cc1 | cytopathic effect | HeLa | - | Serotype 1B | EC25 | 8 µM
Cc1cc(CCCCCOc2cc(Cl)c(-c3nnco3)c(Cl)c2)on1 | - | - | - | Serotype 67 | MIC80 | 0.64 µg/mL
Fc1cccc(Cn2cnc3c(Nc4cccc(F)c4)nc(C(F)(F)F)nc32)c1 | plaque count | M-HELA | - | Serotype 38 | EC50 | 1 µM
Cc1ccc(C(=O)CCCCOc2ccc(C3=NCCO3)cc2)cc1C | - | - | - | serotype 1A 1B 2 6 14 15 21 22 25 29 30 41 42 45 59 63 67 70 72 86 89 | MIC80 | >285 µM
CCOC(=O)c1ccc(OCCC2CCN(c3ccc(C)nn3)CC2)cc1 | cytopathic effect | HELA-OHIO | - | Serotype 70 (group A) | EC50 | 0.005 µM
O=P1(O)OCC2O[C@@H](n3cnc4c(SCc5ccccc5)ncnc43)[C@H](O)C2O1 | - | - | - | TYPE 1A | MIC | 10 µg/mL
Cc1cc(CCCCCOc2cc(Cl)c(-c3nnc(C)o3)c(Cl)c2)on1 | - | - | - | Serotype 21 | MIC80 | 0.0092 µg/mL
O=S(=O)([O-])c1ccc2c(S(=O)(=O)[O-])cc(S(=O)(=O)[O-])cc2c1 | cytopathic effect | Human amnion AV3 cells | 50 µg/mL | - | inhibition | 10%
Cc1cc(CCCCCCCOc2ccc(C3=NCCO3)cc2)on1 | - | - | - | TYPE 2 | MIC | 3.8 µM
Nc1nc2c(ccn2[C@@H]2C[C@H](CO)[C@@H](O)[C@H]2O)c(=O)[nH]1 | - | - | - | TYPE 1B | MIC | >100 µg/mL
CC(=O)c1ccc(CCCOc2c(C)cc(-c3noc(C(F)(F)F)n3)cc2C)nn1 | cytopathic effect | HeLa | - | serotypes 3 4 5 9 16 18 38 66 75 67 | EC80 | 0.189 µg/mL
Cc1cc(CCCOc2c(C)cc(-c3noc(C(F)(F)F)n3)cc2C)on1 | - | - | - | Serotype 2 | EC90 | 0.05 µM
N=C(N)c1ccc(C2=Cc3ccccc3OC2)cc1 | cytopathic effect | HeLa | - | Serotype 1B | EC25 | 40 µM
CCCN=C1CCC(C(=O)NCCC#N)N1 | - | - | - | Serotype 2 | MIC | >100 µg/mL
CCOC(=O)c1ccc(OCCC2CCN(c3ccc(C)nn3)CC2)cc1 | - | - | - | Serotype 10 | EC90 | 0.06 µM
CN(C)c1nc(C(F)(F)F)nc2c1ncn2Cc1ccc(Cl)cc1 | plaque count | M-HELA | - | Serotype 1B | EC50 | 0.03 µM
Cc1ccc(CCCCCOc2ccc(-c3noc(C(F)F)n3)c(C)c2)nn1 | cytopathic effect | HeLa | - | serotypes 3 4 5 9 16 18 38 66 75 67 | EC80 | 0.63 µg/mL
N=C(N)c1ccc2c(c1)C=C(c1ccccc1)CO2 | cytopathic effect | HeLa | - | Serotype 1B | EC25 | 40 µM
N=CCCCCNC(=O)C1CCC(N)=N1 | - | - | - | Serotype 2 | MIC | >100 µg/mL
Cc1cc(CCCOc2c(C)cc(-c3noc(C(F)(F)F)n3)cc2C)on1 | cytopathic effect / visual reading | OHIO HELA-I | - | Isolate 7 | EC50 | 0.22 µg/mL
Cc1cc(CCCOc2c(C)cc(-c3nnn(C)n3)cc2C)on1 | - | - | - | Serotype 14 | MIC | 2.3 µM
Cc1cc(CCCCCOc2c(Cl)cc(C3=NCCO3)cc2Cl)on1 | plaque count | HeLa | - | TYPE 15 | EC50 | 0.13 µg/mL
Cc1cc(CCCCCOc2ccc(C3=NCCO3)c(C)c2)on1 | - | - | - | TYPE 2 | MIC | 1.2 µM
CN(C)c1nc(C(F)(F)F)nc2c1ncn2Cc1ccc(Cl)c(NC=O)c1 | plaque count | M-HELA | 8 µM | Serotype 4 | inhibition | 34%
Cc1nc(-c2cc(C)c(OCCCc3ccc(C(F)F)o3)c(C)c2)no1 | cytopathic effect | HeLa | - | serotypes 3 4 5 9 16 18 38 66 75 67 | EC80 | 3.087 µg/mL
Cc1cc(CCCOc2c(C)cc(-c3nnc(C)o3)cc2C)on1 | plaque count | HeLa | - | serotype 2 1A 1B 6 14 21 22 15 25 30 50 67 89 86 41 | EC80 | 0.12 µg/mL
Cc1cc(OCCCc2ccc(Br)nn2)cc(C)c1-c1noc(C(F)F)n1 | cytopathic effect | HeLa | - | serotypes 3 4 5 9 16 18 38 66 75 67 | EC80 | 0.05 µg/mL
Cc1cc(-c2ccc(N=Nc3ccc4c(S(=O)(=O)O)cc(S(=O)(=O)O)c(N)c4c3O)c(C)c2)ccc1N=Nc1ccc2c(S(=O)(=O)O)cc(S(=O)(=O)O)c(N)c2c1O | cytopathic effect | Human embryonic lung cells | 10 µg/mL | - | inhibition | 0%
CN(C)c1nc(C(F)(F)F)nc2c1ncn2Cc1cccc(F)c1 | plaque count | M-HELA | - | Serotype 19 | EC50 | >8 µM
CSc1nsc(-c2ccc(OCc3ccccc3)cc2)c1C#N | cytopathic effect | HELA-OHIO | - | Serotype 9 (group B) | EC50 | 3 µM
CCc1cc(CCCOc2c(C)cc(-c3nnc(C)o3)cc2C)on1 | plaque count | HeLa | - | serotype 2 1A 1B 6 14 21 22 15 25 30 50 67 89 86 41 | EC80 | 0.15 µg/mL
CSc1nsc(-c2ccc(OCCOc3ccccc3)cc2)c1C#N | cytopathic effect | HELA-OHIO | - | Serotype 72 (group A) | EC50 | >20 µM
CC(=O)c1ccc(CCCOc2c(C)cc(-c3noc(C)n3)cc2C)o1 | cytopathic effect | HeLa | - | 15 serotype mixtures | EC80 | 0.4 µM
N#CCCCCNC(=O)C1CCC(N)=N1 | - | - | - | Serotype 2 | MIC | >100 µg/mL
Nc1ccc2cc(S(=O)(=O)O)cc(S(=O)(=O)O)c2c1 | cytopathic effect | Human embryonic lung cells | 50 µg/mL | - | inhibition | 70%
N=C(N)c1ccc(C2=Cc3cc(C(=N)N)ccc3OC2)cc1 | cytopathic effect | HeLa | - | Serotype 1B | EC25 | 40 µM
CCc1ccc(CCCOc2c(C)cc(-c3nnn(C)n3)cc2C)o1 | cytopathic effect | HeLa | - | serotypes 2 14 1A 1B 6 21 22 15 25 30 50 67 89 86 41 | EC80 | 0.44 µg/mL
CN(C)c1ccc(Cn2cnc3c(N(C)C)nc(C(F)(F)F)nc32)cc1 | plaque count | M-HELA | 8 µM | Serotype 13 | inhibition | 45%
CSc1nsc(-c2ccc(OCCCc3ccccc3)cc2)c1C#N | cytopathic effect | HELA-OHIO | - | Serotype 2 (group B) | EC50 | >20 µM
CCOC(=O)c1cc(Cl)c(OCCCCC(=O)c2ccc(OC)cc2)c(Cl)c1 | - | - | - | serotype 1A 1B 2 6 14 15 21 22 25 29 30 41 42 45 59 63 67 70 72 86 89 | MIC80 | >39 µM
CCc1ccc(CCCOc2cc(C)c(-c3noc(C(F)F)n3)c(C)c2)nn1 | cytopathic effect | HeLa | - | serotypes 3 4 5 9 16 18 38 66 75 67 | EC80 | 1.414 µg/mL
Cc1ccccc1Cn1cnc2c(N(C)C)nc(C(F)(F)F)nc21 | plaque count | M-HELA | - | Serotype 8 | EC50 | >8 µM